Results of unrelated studies side by side (data: NIAID ChemDB).

Shared fields: growth or infection tests; organism: Coxsackie virus

ECn is the concentration giving n% inhibition of infection, replication or growth. Lines come from different laboratories, so protocols vary. Blank or dashed fields: not listed here. Inhibition is in % at the dose shown (toxicity tests: loss of growth or viability).

Nc1nccc2c1ncn2[C@@H]1C=C(CO)[C@@H](O)[C@H]1O ; strain: TYPE B4 ; measure: MIC ; value: >400 µg/mL
N#Cc1csnc1-c1ccccc1 ; strain: TYPE B1 ; cells: HEP-2 ; read by: plaque count ; measure: EC50 ; value: >100 µM
CCn1nc(-c2ccc(Cn3ccc4ccccc43)cc2)nc1C ; strain: B4 ; measure: MIC ; value: 80 µg/mL
Nc1nc2c(ccn2[C@@H]2C[C@H](CO)[C@@H](O)[C@H]2O)c(=O)[nH]1 ; strain: A21 ; measure: MIC ; value: >100 µg/mL
NNC(=O)Cc1nc2n(n1)CCCCC2 ; strain: B4 ; measure: MIC ; value: >400 µg/mL
N#Cc1cc([N+](=O)[O-])ccc1Oc1ccc(Cl)c(Cl)c1 ; strain: TYPE A21 ; cells: VERO ; measure: inhibition ; tested at: 6.25 µg/mL ; value: 100%
CSc1nsc(-c2ccc(Cl)cc2Cl)c1C#N ; strain: TYPE B1 ; cells: HEP-2 ; read by: plaque count ; measure: EC50 ; value: >8 µM
Nc1nccc2c1ncn2[C@@H]1C=C[C@@H](O)[C@H]1O ; strain: TYPE B4 ; measure: MIC ; value: >400 µg/mL
CSc1nsc(-c2ccc(Cl)cc2)c1C#N ; strain: TYPE B1 ; cells: HEP-2 ; read by: plaque count ; measure: EC50 ; value: >5 µM
Nc1nccc2c1ncn2[C@@H]1CC[C@@H](O)[C@H]1O ; strain: TYPE B4 ; measure: MIC ; value: >200 µg/mL
CCn1nc(Cc2n[nH]c(=S)o2)nc1C ; strain: B4 ; measure: MIC ; value: >400 µg/mL
CSc1nsc(-c2cccnc2)c1C#N ; strain: TYPE B1 ; cells: HEP-2 ; read by: plaque count ; measure: EC50 ; value: >20 µM
CCn1nc(CC(=O)N/N=C/c2ccco2)nc1C ; strain: B4 ; measure: MIC ; value: >400 µg/mL
Nc1nccc2c1ncn2[C@@H]1C[C@H](CO)[C@@H](O)[C@H]1O ; strain: TYPE B4 ; measure: MIC ; value: >400 µg/mL
Cc1nc(CC(=O)NN)nn1C ; strain: B4 ; measure: MIC ; value: >400 µg/mL
Cc1cc(CCCCCOc2c(Cl)cc(C3=NCCO3)cc2Cl)on1 ; strain: B3 ; cells: RD-2 ; read by: plaque count ; measure: EC50 ; value: 0.009 µg/mL

2 of the rows above, restated:

SMILES | strain | cells | read by | measure | tested at | value
N#Cc1csnc1-c1ccccc1 | TYPE B1 | HEP-2 | plaque count | EC50 | - | >100 µM
CCn1nc(CC(=O)N/N=C/c2ccco2)nc1C | B4 | - | - | MIC | - | >400 µg/mL